# Source: patent US20210309984
# Target: MUC5AC within type II porcine stomach mucin extract
row,Protein,immunoblot of MUC5AC degradation in type II mucin extract
1,"ChiA C-domain (ChiA-CTD: residues 419-762), wild-type (protein) VTAAKGRIIGYVPGWKTPPAAQELASAGYTHVMIAFGVFSTNTPGVIVPAFETITKEYIQSLHQAGIKVILSLGGALTSIPNTTVDFHQVLVASSSPEAFKQTFINSLKELISQYGFDGFDTDIEHGINASGSFSQPQGDIAVLASIINTMYSQNSSLLITLTPQVANIAATSGFDQTWGNYASLIMQTHQSLAWVGIQLYNTGCAFGIDQVCYGPTPTDTPDFSVAMATDLLENWPATVNGRPTGFQPYISYLRPSQIVIGYPSPNASGGSDGSPVTPTTTIKRAIQCLKTAIAGNTSCGVYVPPRAYGNIGGVFNWEVTYDKNNQFKFAKELKNCAINGVCE",resulted in the processing of MUC5AC into a new ˜70 kDa fragment
2,"Full-length ChiA minus the N-terminal periplasmic signal sequence (ChiA-FL), Legionella pneumophila 130b (protein) NTSLKPSIAQPTACVNSLFTATGNQHWKSIVLKLTNNCNQAVDFQNSTVSFQTTAALNTSFWGDFSPLSYPDNALNISSQPQSGGNYLATLNLHFPSYPGANSKLPVGSSISIKYGAVTDSHIEGTANVYLSTTVESGSIQLINAAAKPTNVSQGYALVHVTMNGQSVSDVQLPWETSKTLSGFAAGNYAISAETVTDSNGNLYLGQANPSMVNVIANQTTSSTINYARVQETGKIKIHVQNLPGELSNYNENPTVLITQSQSGNSRSQHAVWGNTTTVAELKEGSSYQFSTPAIQYNDYNCWPTFTPSSLVASAANVPTTNLTYQCAQIVKDNVTINVSGAPSSLASLKIILTPNDGSQTVEQTIDLANGVGSSAISLTDGVIYTLSSEGVPGYTVQFSPQPLTATENATVNITLSPVTAAKGRIIGYVPGWKTPPAAQELASAGYTHVMIAFGVFSTNTPGVIVPAFETITKEYIQSLHQAGIKVILSLGGALTSIPNTTVDFHQVLVASSSPEAFKQTFINSLKELISQYGFDGFDTDIEHGINASGSFSQPQGDIAVLASIINTMYSQNSSLLITLTPQVANIAATSGFDQTWGNYASLIMQTHQSLAWVGIQLYNTGCAFGIDQVCYGPTPTDTPDFSVAMATDLLENWPATVNGRPTGFQPYISYLRPSQIVIGYPSPNASGGSDGSPVTPTTTIKRAIQCLKTAIAGNTSCGVYVPPRAYGNIGGVFNWEVTYDKNNQFKFAKELKNCAINGVCE",resulted in the processing of MUC5AC into a new ˜70 kDa fragment
